This note sets out measurements from US20260069689A1, “ANTI-SARS-COV-2-SPIKE GLYCOPROTEIN ANTIBODIES AND ANTIGEN-BINDING FRAGMENTS” (Regeneron, published 2026).

Usually IC50 stands for the midpoint of a concentration-inhibition curve. The IC90 is the concentration at which the effect reaches the 90% level. High values mean a need for much substance, low ones an effect from little substance.

Holding throughout (experiment): cell-based or functional assay
Assay [1] has as its target SARS-CoV-2 S protein variant B.1.617.2 (Delta) (SARS-CoV-2, T19R; G142D; E156G; F157del; R158del; L452R; T478K; D614G; P681R; D950N).
In assay [2] the target is SARS-CoV-2 S protein variant B.1.617.1 (Kappa) (SARS-CoV-2).
In assay [3] the target is SARS-CoV-2 S protein variant BA.4/BA.5 (Omicron) (SARS-CoV-2).
The target in assay [4] is SARS-CoV-2 S protein variant P.1 (Gamma) (SARS-CoV-2).
Assay [5] deals with T1, full-length SARS-CoV-2 spike protein (Wuhan-Hu-1) on Jurkat/hCD20 cells (SARS-CoV-2, UniProt P0DTC2 14-1273).
For assay [6], the target named is T2, human CD20 on Jurkat cells (human, UniProt P11836 1-297).
T2 sequence: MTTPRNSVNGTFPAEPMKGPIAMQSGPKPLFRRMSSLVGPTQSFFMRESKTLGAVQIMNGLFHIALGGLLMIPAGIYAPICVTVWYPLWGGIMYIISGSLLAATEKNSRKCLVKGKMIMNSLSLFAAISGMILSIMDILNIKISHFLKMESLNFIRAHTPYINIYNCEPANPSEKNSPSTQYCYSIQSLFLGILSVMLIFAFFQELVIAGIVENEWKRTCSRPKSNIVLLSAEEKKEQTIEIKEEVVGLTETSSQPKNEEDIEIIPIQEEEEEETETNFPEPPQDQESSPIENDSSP

Assay [7] deals with T1, full-length SARS-CoV-2 spike protein …. This is another data set of the same source.
For assay [8] the target is unchanged. The source holds these as a separate data set.
In assay [9] the target is T3, full-length SARS-CoV-2 BA.1 S protein on Jurkat/hCD20 cells (SARS-CoV-2 (BA.1 omicron lineage), UniProt P0DTC2 14-1273).
Assay [10] concerns the target T1, full-length SARS-CoV-2 spike protein …. The source holds these as a separate data set.
Assay [11] concerns the target T3, full-length SARS-CoV-2 BA.1 S protein …. The source holds these as a separate data set.

B1: mAb10987 (Imdevimab) (antibody, V domains shown)
VH: QVQLVESGGGVVQPGRSLRLSCAASGFTFSNYAMYWVRQAPGKGLEWVAVISYDGSNKYYADSVKGRFTISRDNSKNTLYLQMNSLRTEDTAVYYCASGSDYGDYLLVYWGQGTLVTVSS
VL: QSALTQPASVSGSPGQSITISCTGTSSDVGGYNYVSWYQQHPGKAPKLMIYDVSKRPSGVSNRFSGSKSGNTASLTISGLQSEDEADYYCNSLTSISTWVFGGGTKLTVLG
Consider B1, for which the “IC50” value is 0.0104 nM in assay [1], 0.0151 nM in assay [2], 1.38 nM in assay [3] and 0.00458 nM in assay [4]. Besides, the “IC90” value was found to be 0.211 nM in assay [1], 0.163 nM in assay [2], 11 nM in assay [3] and 0.0646 nM in assay [4].

B2: mAb15160 (antibody, V domains shown)
VH: EVQLVESGGGLVQPGGSLRLSCSASGFTFSRYAMYWVRQAPGKGLEYVSAISSDGGSTYDADSVKGRFTISRANSKNTLYLQMSSLRAEDTAVYYCVKGLRELLYYYYGMDVWGQGTTVTVSS
VL: DIQMTQSPSSLSASVGDRVTITCRAGQSISSFLNWYQQKPGKAPKLLIYAASSLQSGVPSRFSGSGSGTDFTLTISSLQPEDFATYYCQQSYITPFTFGPGTKVDIKR
Take B2: in assay [5], the “Max cytotoxicity (%), ADCC, NK donor #1, Jurkat/hCD20/SARS-CoV-2 S FL cells” value is 1.8%; the “Max cytotoxicity (%), ADCC, NK donor #2, Jurkat/hCD20/SARS-CoV-2 S FL cells” value is 6.3%; the “Max cytotoxicity (%), ADCC, NK donor #3, Jurkat/hCD20/SARS-CoV-2 S FL cells” value was 12.9%. In assay [6], the “Max ADCP (%), MDM donor #1, Jurkat/hCD20 cells” value came to 14.7% and the “Max ADCP (%), MDM donor #2, Jurkat/hCD20 cells” value was 11.1%. For the same molecule, in assay [7], the “EC50 (M) of ADCP, MDM donor #1, Jurkat/hCD20/SARS-CoV-2 S FL cells” value was found to be 7.81e-11 M; the “EC50 (M) of ADCP, MDM donor #2, Jurkat/hCD20/SARS-CoV-2 S FL cells” value stood at 4.76e-11 M; the “Max ADCP (%), MDM donor #1, Jurkat/hCD20/SARS-CoV-2 S FL cells” value stood at 27.5%; the “Max ADCP (%), MDM donor #2, Jurkat/hCD20/SARS-CoV-2 S FL cells” value worked out at 31.1%.

B3: mAb14284 (antibody, V domains shown)
VH: QITLKESGPTLVKPTQTLTLTCTFSGFSFSTSGVGVGWIRQPPGKTLEWLALIYWDDDKRYSPSLKSRLTITKDTSKNQVVLTMTNMDPVDTATYFCAHHGIPTIFGYWGQGALVTVSS
VL: QSALTQPASVSGSPGQSITISCTGTSSDLGVFNYVSWYQQHPGKAPKLMIYEVTNRPSGVSNRFSGSKSGNTASLTISGLQAEDEADYYCSSYTTSSTVFGGGTKLTVLG
For the molecule B3, the “EC50 (M) of ADCC, pooled primary NK cells, Jurkat/hCD20/SARS-CoV-2 Wu-1 S cells” value in assay [8] turned out to be 6.41e-12 M. Moreover, the “EC50 (M) of ADCC, pooled primary NK cells, Jurkat/hCD20/SARS-CoV-2 BA.1 S cells” value in assay [9] stood at 2.64e-11 M. Further, the “EC50 (M) of ADCP, MDM donor #2, Jurkat/hCD20/SARS-CoV-2 Wu-1 S cells” value in [10] was 1.64e-11 M. Also, in assay [11], the “EC50 (M) of ADCP, MDM donor #1, Jurkat/hCD20/SARS-CoV-2 BA.1 S cells” value is 3.11e-11 M and the “EC50 (M) of ADCP, MDM donor #2, Jurkat/hCD20/SARS-CoV-2 BA.1 S cells” value worked out at 3.73e-11 M.
